Data as given in PubChem BioAssay AID624099 (ICCB-Longwood, 2012).
Aim: 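Knock-downs relieving repression by E2 of an HPV18 LCR luciferase reporter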 (primary screen). Cells: human C33A cervical carcinoma cells (HPV-negative) stably expressing BPV1 E2 and an HPV18 LCR luciferase reporter. Reagent: siRNA pool against human genes, 40 nM. Timing: 72 h. Detection: 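Per-well luciferase luminescence, z-scored on each plate against the plate mean and SD with control wells left out, then averaged across three replicate plates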. Reading the numbers: mean z-score and z-score: higher = stronger reporter signal, weaker E2 silencing. Active means: 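Hit if mean z-score reaches 2 and two or more of three replicate z-scores also reach 2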.
In all, the deposit lists about 21,000 reagents; shown is an unselected part. In the full data, 497 (2.4%) got an active call. 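Higher z means weaker E2 silencing; only reporter increases were scored, and knock-downs that hurt cell survival may mask genuine repressor factors.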 Reagents against one gene are numbered here.

gene	reagent no.	mean z-score	z-score, replicate A	z-score, replicate B	z-score, replicate C	Call
ZBTB44	1	-1.1	-1.16	-1.29	-0.86	inactive
EMX2	1	1.76	2.27	1.37	1.64	inactive
OR5T2	1	1.16	1.28	1.01	1.18	inactive
SIAH1P1	1	1.54	1.54	1.42	1.65	inactive
TRMT44	1	1.38	1.65	1.2	1.27	inactive
IHH	1	0.12	0.1	0.14	0.14	inactive
LOC389910 (retired record)	1	0.33	0.2	0.33	0.44	inactive
NPEPPS	1	-0.74	-0.77	-0.81	-0.63	inactive
LCE1E	1	-0.3	-0.32	-0.55	-0.03	inactive
SALL3	1	1.01	1.47	0.91	0.66	inactive
FABP3	1	0.03	0	0.23	-0.14	inactive
TRPC7	1	0.27	0.16	0.47	0.17	inactive
ATP6V1A	1	-0.21	0.04	-0.3	-0.39	inactive
FAM241A	1	-1.09	-1.19	-1.09	-0.98	inactive
RAD54L	1	-0.21	-0.37	-0.19	-0.06	inactive
LRWD1	1	0.14	0	0.3	0.12	inactive
PCDHB13	1	-0.27	-0.49	-0.48	0.16	inactive
C14orf119	1	0.91	0.12	1.15	1.46	inactive
OBP2A	1	-0.52	-0.82	-0.66	-0.07	inactive
ELAVL3	1	0.09	0.49	0	-0.23	inactive
PSEN2	1	0.95	0.92	0.93	0.99	inactive
GARIN5B	1	0.58	0.85	0.44	0.44	inactive
SLC4A8	1	0.96	1.08	0.91	0.89	inactive
SLC4A8	2	0.01	-0.34	0.45	-0.08	inactive
LOC391025 (retired record)	1	-0.41	-0.09	-0.65	-0.49	inactive
COQ7	1	0.81	0.89	0.64	0.89	inactive
ANKRD37	1	0.63	0.9	0.43	0.57	inactive
RHBDL3	1	-0.04	-0.28	0.23	-0.05	inactive
SNRNP40	1	-0.63	-0.62	-0.5	-0.76	inactive
SLC46A2	1	0.3	0.22	-0.01	0.69	inactive
REV1	1	-1.14	-1.23	-1.29	-0.9	inactive
CHST2	1	0.07	0.06	-0.04	0.2	inactive
ZNF33A	1	0.47	0.43	0.25	0.72	inactive
ECEL1	1	-0.13	0.06	-0.47	0	inactive
ARHGAP40	1	0.15	0	0.1	0.36	inactive
ERG	1	-0.95	-1.31	-0.74	-0.8	inactive

9 entries already listed, ordered by “z-score, replicate A”, lowest first:
gene	reagent no.	mean z-score	z-score, replicate A	z-score, replicate B	z-score, replicate C	Call
FAM241A	1	-1.09	-1.19	-1.09	-0.98	inactive
PCDHB13	1	-0.27	-0.49	-0.48	0.16	inactive
RAD54L	1	-0.21	-0.37	-0.19	-0.06	inactive
FABP3	1	0.03	0	0.23	-0.14	inactive
LRWD1	1	0.14	0	0.3	0.12	inactive
ATP6V1A	1	-0.21	0.04	-0.3	-0.39	inactive
C14orf119	1	0.91	0.12	1.15	1.46	inactive
TRPC7	1	0.27	0.16	0.47	0.17	inactive
SALL3	1	1.01	1.47	0.91	0.66	inactive

Next reagents:
gene	reagent no.	mean z-score	z-score, replicate A	z-score, replicate B	z-score, replicate C	Call
EVI2A	1	2.23	1.93	1.98	2.8	inactive
SH2D4B	1	0.51	0.65	0.79	0.1	inactive
PHYHD1	1	0.36	0.6	-0.04	0.51	inactive
OR51B4	1	-0.13	-0.22	-0.36	0.19	inactive
ZNF267	1	-1.63	-1.74	-1.58	-1.58	inactive
SLC10A3	1	-0.5	-0.61	-0.45	-0.45	inactive
SHD	1	0.53	0.48	0.49	0.62	inactive
GPR165P	1	0.9	1.39	0.5	0.8	inactive
SOX8	1	0.27	0.51	0.03	0.26	inactive
LOC402207 (retired record)	1	0.2	-0.13	0.48	0.23	inactive
LOC402207 (retired record)	2	0.45	0.73	0.4	0.23	inactive
NKX3-1	1	-0.42	-0.22	-0.45	-0.6	inactive
ZNF200	1	-1.97	-1.61	-1.94	-2.37	inactive
THEMIS2	1	1.43	1.29	1.24	1.75	inactive
RNF146	1	1.2	0.54	1.11	1.95	inactive
TTTY5	1	-0.78	-1.05	-0.4	-0.89	inactive
FASN	1	0.78	0.58	0.69	1.06	inactive
TMEM248	1	-0.25	-0.49	-0.03	-0.22	inactive
DUSP4	1	-0.92	-0.64	-1.04	-1.09	inactive
HMGB3P30	1	0.7	0.58	0.58	0.94	inactive
SLC25A42	1	-0.49	-0.68	-0.7	-0.07	inactive
